PubChem BioAssay AID624099 | ICCB-Longwood, 2012
Assay: 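Host factors E2 relies on to silence an HPV18 LCR reporter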 (primary screen). System: human C33A cervical carcinoma cells (HPV-negative) stably expressing BPV1 E2 and an HPV18 LCR luciferase reporter. Reagent: siRNA pool against human genes, 40 nM. Timing: 72 h. Measurement: 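Per-well luciferase luminescence, z-scored on each plate against the plate mean and SD with control wells left out, then averaged across three replicate plates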. Direction: mean z-score and z-score: higher = stronger reporter signal, weaker E2 silencing. Call rule: 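Hit if mean z-score reaches 2 and two or more of three replicate z-scores also reach 2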.
Shown is a random part of about 21,000 reagents tested. In the full data, 497 (2.4%) are marked active. 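Higher z means weaker E2 silencing; only reporter increases were scored, and knock-downs that hurt cell survival may mask genuine repressor factors.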 Entries without a mark were called inactive.

| gene | mean z-score | z-score, replicate A | z-score, replicate B | z-score, replicate C |
| --- | --- | --- | --- | --- |
| ZFP92 (ZFP92 zinc finger protein) | 0.61 | 1.16 | 0.22 | 0.44 |
| PIP4K2A (phosphatidylinositol-5-phosphate 4-kinase type 2 alpha) | -0.74 | -1.16 | -0.46 | -0.62 |
| CAMKK2 (calcium/calmodulin dependent protein kinase kinase 2) | 0.12 | -0.14 | 0.67 | -0.16 |
| NUDT15 (nudix hydrolase 15) | 0.5 | 0.27 | 0.58 | 0.65 |
| SI (sucrase-isomaltase) | -1.54 | -1.47 | -1.7 | -1.44 |
| AGO3 (argonaute RISC catalytic component 3) | -0.98 | -1.55 | -0.8 | -0.6 |
| SYP (synaptophysin) | -0.03 | -0.12 | -0.03 | 0.06 |
| PRPF38B (pre-mRNA processing factor 38B) | -0.94 | -1.27 | -1.26 | -0.3 |
| HSF1 (heat shock transcription factor 1) | -0.83 | -0.79 | -0.6 | -1.09 |
| UCK1 (uridine-cytidine kinase 1) | -0.02 | 0.1 | 0.31 | -0.46 |
| SPACA3 (sperm acrosome associated 3) | -0.34 | -0.72 | -0.27 | -0.04 |
| GALNT15 (polypeptide N-acetylgalactosaminyltransferase 15) | -1.91 | -1.68 | -1.93 | -2.13 |
| STAG2 (STAG2 cohesin complex component) | 0.78 | 0.73 | 0.66 | 0.94 |
| MOK (MOK protein kinase) | 0.08 | 0.11 | -0.18 | 0.31 |
| SH3GLB2 (SH3 domain containing GRB2 like, endophilin B2) | 0.75 | 0.78 | 1.04 | 0.44 |
| WFDC1 (WAP four-disulfide core domain 1) | -0.86 | -0.76 | -1.01 | -0.81 |
| LINC00670 (long independently transcribed non-coding RNA 670) | -1.28 | -1.25 | -1.44 | -1.16 |
| ZNF480 (zinc finger protein 480) | -0.54 | -0.09 | -0.88 | -0.67 |
| LOC339693 (retired record) | -0.09 | 0.2 | 0.18 | -0.66 |
| RIDA (reactive intermediate imine deaminase A) | 1.15 | 1.5 | 1.18 | 0.78 |
| FOXS1 (forkhead box S1) | 2.04 | 2.43 | 2 | 1.69 |
| ZNF524 (zinc finger protein 524) | -0.88 | -0.91 | -0.41 | -1.33 |
| HOXC13 (homeobox C13) | 1.63 | 1.87 | 1.47 | 1.55 |
| PTPRJ (protein tyrosine phosphatase receptor type J) | 0.5 | 0.24 | 0.74 | 0.52 |
| UCHL3 (ubiquitin C-terminal hydrolase L3) | 1 | 0.87 | 1.37 | 0.76 |
| HAO2 (hydroxyacid oxidase 2) | 0.28 | 0.12 | 0.55 | 0.19 |
| SIRPD (signal regulatory protein delta) | 0.07 | 0.03 | 0 | 0.16 |
| LPCAT4 (lysophosphatidylcholine acyltransferase 4) | 0.08 | 0.29 | -0.29 | 0.23 |
| EXOG (exo/endonuclease G) | 0.55 | 0.43 | 0.76 | 0.47 |
| BYSL (bystin like) | -1.27 | -1.56 | -1.17 | -1.08 |
| IGFBP2 (insulin like growth factor binding protein 2) | -0.8 | -0.47 | -0.93 | -1.01 |
| SLC41A3 | 0.05 | 0.07 | 0.07 | 0.01 |
| UBE2B (ubiquitin conjugating enzyme E2 B) | -0.24 | -0.1 | -0.38 | -0.23 |
| ERCC1 (ERCC excision repair 1, endonuclease non-catalytic subunit) | 0.73 | 0.75 | 0.57 | 0.86 |
| IL13RA1 (interleukin 13 receptor subunit alpha 1) | 0.82 | 0.78 | 0.91 | 0.77 |
| MED31 (mediator complex subunit 31) | -0.54 | -0.96 | -0.06 | -0.6 |
| LOC400723 (retired record) | 0.06 | 0.13 | 0.12 | -0.08 |
| MAPDA (N6-Methyl-AMP deaminase) | 0.66 | 0.78 | 0.59 | 0.6 |
| CALCA (calcitonin related polypeptide alpha) | 0.69 | 0.45 | 0.4 | 1.21 |
